Target: SLC39A9-6×His-2×Strep (UniProt Q9NUM3)
Experiment: SPR

GPΔMUC-His (domain or fragment)
Kd: 3000 nM

Reference: PMC11341029, “Genome-wide CRISPR/Cas9 screen identifies SLC39A9 and PIK3C3 as crucial entry factors for Ebola virus infection” (2024)
